Assay results: PMC8036510, “The Inhibitory Effects of Plant Derivate Polyphenols on the Main Protease of SARS Coronavirus 2 and Their Structure–Activity Relationship” (Molecules, 2021)

Target: SARS-CoV-2 M^pro (Severe acute respiratory syndrome coronavirus 2, UniProt P0DTD1)
Conditions: pH 7.5

Substance: Catechin gallate [Catechin gallate (CG)]
- Inhibition (%): 21%
